# From publication PMC8878501 (Marine Drugs, 2022)
# Chains of the proteins cited; added tags and fusions are not shown. Lines headed by an entry give the natural chain unless they say otherwise; changes in a name come on top. Residues count along the entry.
# UniProt P02716, 25-520 limits assumed: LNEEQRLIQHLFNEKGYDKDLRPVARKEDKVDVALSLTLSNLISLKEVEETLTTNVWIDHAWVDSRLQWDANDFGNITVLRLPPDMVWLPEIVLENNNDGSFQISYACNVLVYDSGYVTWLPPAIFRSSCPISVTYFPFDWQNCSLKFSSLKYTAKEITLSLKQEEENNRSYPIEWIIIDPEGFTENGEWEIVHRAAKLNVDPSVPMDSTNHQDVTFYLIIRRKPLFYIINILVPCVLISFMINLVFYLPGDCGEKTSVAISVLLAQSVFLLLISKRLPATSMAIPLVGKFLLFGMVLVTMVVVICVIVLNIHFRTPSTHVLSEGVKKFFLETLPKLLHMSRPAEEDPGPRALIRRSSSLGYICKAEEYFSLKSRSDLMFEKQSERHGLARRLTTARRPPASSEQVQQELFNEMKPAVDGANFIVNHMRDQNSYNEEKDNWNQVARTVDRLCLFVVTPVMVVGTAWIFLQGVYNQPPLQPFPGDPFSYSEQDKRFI
# UniProt P09690, 24-501 partner limits assumed: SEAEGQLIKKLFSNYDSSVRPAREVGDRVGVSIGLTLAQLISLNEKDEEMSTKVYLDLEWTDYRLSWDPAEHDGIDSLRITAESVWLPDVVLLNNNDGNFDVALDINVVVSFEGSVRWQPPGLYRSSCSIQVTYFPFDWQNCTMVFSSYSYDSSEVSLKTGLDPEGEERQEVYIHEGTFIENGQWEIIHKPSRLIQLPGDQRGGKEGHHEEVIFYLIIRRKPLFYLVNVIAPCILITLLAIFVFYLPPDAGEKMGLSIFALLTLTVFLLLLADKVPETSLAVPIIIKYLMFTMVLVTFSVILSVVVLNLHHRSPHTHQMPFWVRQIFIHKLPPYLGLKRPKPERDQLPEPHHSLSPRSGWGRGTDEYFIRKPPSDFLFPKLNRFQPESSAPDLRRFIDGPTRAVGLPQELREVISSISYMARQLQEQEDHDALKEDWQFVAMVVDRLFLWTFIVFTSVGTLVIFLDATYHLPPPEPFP
# UniProt P20782, 21-493 limits assumed: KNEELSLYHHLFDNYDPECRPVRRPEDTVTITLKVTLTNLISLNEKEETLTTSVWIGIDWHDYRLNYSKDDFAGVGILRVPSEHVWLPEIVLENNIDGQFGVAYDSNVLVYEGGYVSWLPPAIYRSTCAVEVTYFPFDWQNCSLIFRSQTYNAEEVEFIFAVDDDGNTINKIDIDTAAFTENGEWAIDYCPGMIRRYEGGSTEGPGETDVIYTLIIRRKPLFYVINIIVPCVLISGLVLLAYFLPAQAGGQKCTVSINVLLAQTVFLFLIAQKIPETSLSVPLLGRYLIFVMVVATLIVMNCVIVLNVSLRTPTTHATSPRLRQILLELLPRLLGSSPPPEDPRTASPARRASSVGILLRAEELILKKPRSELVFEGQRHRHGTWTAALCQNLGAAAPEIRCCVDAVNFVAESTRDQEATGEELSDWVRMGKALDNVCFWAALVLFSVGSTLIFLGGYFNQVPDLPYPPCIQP
# Biological target: mα1β1δɛ nAChR (Mus musculus, UniProt P02716+P04756+P09690+P20782)
# Experiment: Two-electrode voltage clamp, mα1β1δε nAChR in Xenopus laevis oocytes
# Conditions: 10 µM ACh
smiles,measurement,setting,value
CC[C@H](C)[C@@H]1NC(=O)[C@H](CCC(=O)O)NC(=O)[C@@H]2CCCN2C(=O)[C@H](Cc2c[nH]cn2)NC(=O)[C@H]([C@@H](C)O)NC(=O)[C@H](CCC(N)=O)NC(=O)[C@H](C)NC(=O)[C@@H]2CSSC[C@H](NC(=O)[C@H](CCC(=O)O)NC(=O)[C@@H](N)CC(=O)O)C(=O)N[C@@H](CSSC[C@@H](C(N)=O)NC1=O)C(=O)N[C@@H](CO)C(=O)N[C@@H](CC(N)=O)C(=O)N1CCC[C@H]1C(=O)N[C@@H](CO)C(=O)N2 [QuIA],IC50,"−70 mV, less than 50% blocking at 10 µM",> 10 µM
same,blocking of ACh-induced current,at 10 µM,"^a Values in parentheses are a 95% confidence interval (C.I.). ^b Less than 50% blocking at 10 µM. All receptors are of rat (r) or human (h) origin, except α1β1δε, which is of mouse (m) origin. ND, not determined."
